Experimental data published in patent US20250002563A1.

Target: recombinant RBD of the SARS-CoV-2 S protein (Example 1) (SARS-CoV-2), P0DTC2
Assay: SPR, RBD immobilized on CM5
Details: remark: other sources report otherwise

B1: Nb20 (VHH)
chain: QVQLVESGGGLVQAGGSLRLSCAVSGAGAHRVGWFRRAPGKEREFVAAIGASGGMTNYLDSVKGRFTISRDNAKNTIYLQMNSLKPQDTAVYYCAARDIETAEYIYWGQGTQVTVSS
- Kd: 0.0104 nM
